# RC index of single-base changes in HIV-1 protease

Values reported by Al-Mawsawi et al. 2014 (doi:10.1186/s12977-014-0124-6).

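Seven fragments of pNL4-3 were mutated by error-prone PCR, and each virus pool was passaged in CEM T cells. The RC index is the frequency of a change after passage round 2 divided by its frequency in the plasmid library.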

Protein: protease of HIV-1 NL4-3, numbered from its first residue. The source prints no sequence; the chain below is taken from UniProt P12497, a closely related isolate, and fits the source at the 87 positions it covers.
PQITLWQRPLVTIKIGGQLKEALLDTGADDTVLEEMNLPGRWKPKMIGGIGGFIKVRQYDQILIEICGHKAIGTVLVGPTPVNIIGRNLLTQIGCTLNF
The overlapping Gag p6 frame may change too; the source does not say.
Effects on overlapping genes or RNA elements are not listed.

RC index: lower means poorer replication; rough cut-offs are 0.1 (lethal) and 0.2 (tolerated). Substitutions are written as wild-type residue, site number, new residue. An index over 1, which the authors read as above wild type, was rare (1.9% of all changes in the genome). Clones carried about five changes per kilobase, which can drag down the index of neutral changes. Base changes are numbered along pNL4-3.

* L90F (base G2522T) -> 0.323
* F99S (base T2548C) -> 0.0869
* P1H (base C2254A) -> 0.113
* H69R (base A2458G) -> 0.0565
* C67F (base G2452T) -> 0.0346
* I62K (base T2437A) -> 0.0723
* L33S (base T2350C) -> 0.0699
* T74I (base C2473T) -> 0.0622
* R57S (base A2423T) -> 0.0357
* L5P (base T2266C) -> 0.0761
* G16R (base G2298A) -> 0.156
* M46L (base A2388T) -> 0.0766
* I85T (base T2506C) -> 0.0370
* L19S (base T2308C) -> 0.0643
* D29E (base T2339A) -> 0.0516
* E35D (base A2357T) -> 0.0551
* D60G (base A2431G) -> 0.0397
* K55N (base A2417T) -> 0.0351
* R8L (base G2275T) -> 0.100
* T96A (base A2538G) -> 0.0528
* I85N (base T2506A) -> 0.0819
* I64V (base A2442G) -> 0.0775
* P1L (base C2254T) -> 0.418
* E65D (base A2447T) -> 0.0362
* P79L (base C2488T) -> 0.0848
* V11D (base T2284A) -> 0.0230
* G73S (base G2469A) -> 0.197
* W6L (base G2269T) -> 0.0572
* A71S (base G2463T) -> 0.0503
* P9T (base C2277A) -> 0.0651
* L23P (base T2320C) -> 0.142
* K20N (base G2312T) -> 0.0667
* C95R (base T2535C) -> 0.328
* I54V (base A2412G) -> 0.0727
* D60N (base G2430A) -> 0.385
* G73D (base G2470A) -> 0.0716
* G94R (base G2532C) -> 0.0490
* E65G (base A2446G) -> 0.0912
* N98D (base A2544G) -> 0.0447
* L63I (base C2439A) -> 0.893
* Y59H (base T2427C) -> 0.218
* L89M (base C2517A) -> 0.0629
* N37D (base A2361G) -> 0.0783
* I66V (base A2448G) -> 0.111
* C95W (base C2537G) -> 0.0516
* L76V (base T2478G) -> 0.0441
* I72T (base T2467C) -> 0.0632
* L24F (base A2324T) -> 0.0525
* H69Q (base T2459A) -> 0.0523
* A22P (base G2316C) -> 0.129
* K14M (base A2293T) -> 0.0357
* T12K (base C2287A) -> 0.0899
* N98K (base T2546A) -> 0.0625
* W6C (base G2270C) -> 0.0710
* P79H (base C2488A) -> 0.188
* P39L (base C2368T) -> 0.405
* R87I (base G2512T) -> 0.0678
* G16A (base G2299C) -> 0.0314

Excerpt, the final 6 entries:

{"mutation": "N98K", "base": "T2546A", "replication capacity index": 0.0625}
{"mutation": "W6C", "base": "G2270C", "replication capacity index": 0.0710}
{"mutation": "P79H", "base": "C2488A", "replication capacity index": 0.188}
{"mutation": "P39L", "base": "C2368T", "replication capacity index": 0.405}
{"mutation": "R87I", "base": "G2512T", "replication capacity index": 0.0678}
{"mutation": "G16A", "base": "G2299C", "replication capacity index": 0.0314}